Anti-infective test results gathered from many reports (values: NIAID ChemDB through PubChem).

Common to all: enzyme or target tests; species: HIV-1; protein: Protease; endpoint: IC50

Neighbouring rows are from separate reports. ICn: concentration for n% inhibition. An empty or dashed field is not shown.

smiles,method,conditions,result
CC(C)(C)NC(=O)[C@@H]1CCCN1C(=O)[C@@H](O)[C@H](Cc1ccccc1)NC(=O)[C@H](CS(C)(=O)=O)NC(=O)COc1ccc2ccccc2c1,,,<0.05 µM
C=C(C)[C@@H]1CC[C@]2(C(=O)O)CC[C@]3(C)[C@H](CC[C@@H]4[C@@]5(C)CC[C@H](OC(=O)CCC(=O)OC)C(C)(C)C5CC[C@]43C)[C@@H]12,HPLC,,40 µM
CC(C)[C@H](N)C(=O)N[C@H](C(=O)N[C@@H](Cc1ccccc1)[C@@H](O)C(=O)N[C@H](Cc1ccccc1)C(=O)N[C@@H](C(=O)N[C@@H](C(N)=O)C(C)C)C(C)C)C(C)C,,,<1000 µM
NC(=O)C[C@H](NC(=O)c1ccc2ccccc2n1)C(=O)N[C@@H](Cc1ccccc1)[C@H](O)CN1CCC[C@H]1C(F)(F)F,,,0.00005 µM
COC(=O)c1cc(NC(=O)c2nc3ccc(NC(=O)c4cc(NC(=O)OC(C)(C)C)cs4)cc3o2)cs1,fluorescence,,17.2 µM
NC(=O)CCNC(=O)[C@@H]1CCCN1C(=O)[C@@H](O)[C@H](Cc1ccccc1)NC(=O)[C@H](CC(N)=O)NC(=O)CCc1ccccc1,,,>5 µM
CC(C)[C@H](NC(=O)[C@H](Cc1cccc2ccccc12)CS(=O)(=O)C(C)(C)C)C(=O)N[C@@H](Cc1ccccc1)[C@@H](O)CN1[C@H](C)CC[C@H]1C(F)(F)F,,,0.005 µM
C=C(C)[C@@H]1CC[C@]2(C(=O)O)CC[C@]3(C)[C@H](CC[C@@H]4[C@@]5(C)CC[C@H](OC(=O)C(=O)O)C(C)(C)C5CC[C@]43C)[C@@H]12,HPLC,,7 µM
CC[C@@H](C)[C@H](NC(=O)[C@@H]1CCCN1C(=O)[C@@H](O)[C@H](CC1CCCCC1)NC(=O)[C@H](COC)NC(=O)CCc1ccccc1)C(=O)N[C@H](C(N)=O)C(C)C,,,<5 µM
CC(C)(C)S(=O)(=O)C[C@@H](Cc1cccc2ccccc12)C(=O)N[C@@H](CC(N)=O)C(=O)N[C@@H](Cc1ccccc1)[C@H](O)C(O)CN1CCC[C@H]1C(F)(F)F,,,0.01 µM
CC(C)C[C@H](NC(=O)[C@@H](NC(=O)CCCCCNC(=O)[C@H](Cc1ccccc1)NC(=O)[C@H](CCC(=O)O)NC(=O)[C@H](Cc1ccccc1)NC[C@H](Cc1ccccc1)NC(=O)OC(C)(C)C)[C@@H](C)O)C(=O)N[C@@H](CC(N)=O)C(=O)N[C@@H](Cc1ccccc1)C(=O)O,fluorescence,pH 7.0,0.567 µM
NC(=O)C[C@H](NC(=O)c1ccc2ccccc2n1)C(=O)N[C@@H](Cc1ccccc1)[C@H](O)C(O)CN1CCC[C@H]1C(F)(F)F,,,0.0005 µM
COc1ccc(S(=O)(=O)NC(N)=NCCC[C@H](NC(=O)OCC2c3ccccc3-c3ccccc32)C(=O)O)cc1,HPLC,,40 µM
C=C(C)[C@@H]1CC[C@]2(C(=O)O)CC[C@]3(C)[C@H](CC[C@@H]4[C@@]5(C)CC[C@H](OC(=O)CC(C)(C)CC(=O)O)C(C)(C)[C@@H]5CC[C@]43C)[C@@H]12,HPLC,,4 µM
Cc1ccc(S(=O)(=O)NC(N)=NCCC[C@H](NC(=O)OCC2c3ccccc3-c3ccccc32)C(=O)O)cc1,HPLC,,5 µM
CS(=O)(=O)C[C@H](NC(=O)COc1cccc2ccccc12)C(=O)N[C@@H](Cc1ccccc1)[C@H](O)C(=O)N1CSC[C@H]1C(=O)NCCCC(N)=O,,,>0.05 µM
CC(C)[C@H](NC(=O)[C@H](Cc1cccc2ccccc12)CS(=O)(=O)C(C)(C)C)C(=O)N[C@@H](Cc1ccccc1)[C@@H](O)CN1CCCC[C@H]1C(F)(F)F,,,0.01 µM
C[C@@H]1CC[C@]2(C(=O)O)CC[C@]3(C)C(=CCC4[C@@]5(C)CC[C@H](OC(=O)CC(=O)O)C(C)(C)C5CC[C@]43C)C2[C@H]1C,HPLC,,6 µM
CC(C)[C@H](N)C(=O)N[C@H](C(=O)N[C@@H](Cc1ccccc1)[C@@H](O)C(=O)N[C@@H](Cc1ccccc1)C(=O)N[C@H](C(=O)N[C@H](C(N)=O)C(C)C)C(C)C)C(C)C,,,<5 µM
COc1cc(C)c(S(=O)(=O)NC(N)=NCCC[C@H](NC(=O)OCC2c3ccccc3-c3ccccc32)C(=O)O)c(C)c1C,HPLC,,66 µM
C=C(C)[C@@H]1CC[C@]2(C(=O)OC)CC[C@]3(C)[C@H](CC[C@@H]4[C@@]5(C)CC[C@H](O)C(C)(C)[C@@H]5CC[C@]43C)[C@@H]12,HPLC,,>25 µM
Cc1c(C)c(S(=O)(=O)NC(N)=NCCC[C@H](NC(=O)OCC2c3ccccc3-c3ccccc32)C(=O)O)c(C)c2c1OC(C)(C)CC2,HPLC,,30 µM
CC(=O)N[C@H](C(=O)N[C@@H](CC(C)C)C(=O)N[C@@H](CC(N)=O)C(=O)N[C@@H](Cc1ccccc1)C(=O)O)[C@@H](C)O,fluorescence,pH 5.0,76.35 µM
Cc1ccc(S(=O)(=O)NC(N)=NCCC[C@H](NC(=O)OCC2c3ccccc3-c3ccccc32)C(=O)OCc2ccccc2)cc1,HPLC,,60 µM
C[C@H]1[C@H](C)CC[C@]2(C(=O)O)CC[C@]3(C)C(=CC[C@@H]4[C@@]5(C)CC[C@H](O)C(C)(C)[C@@H]5CC[C@]43C)[C@H]12,HPLC,,8 µM
NC(=NCCC[C@H](NC(=O)OCC1c2ccccc2-c2ccccc21)C(=O)O)NS(=O)(=O)Cc1ccccc1,HPLC,,370 µM
CC1(C)CC[C@]2(C(=O)O)CC[C@]3(C)C(=CCC4[C@@]5(C)CC[C@H](OC(=O)CCCC(=O)O)C(C)(C)C5CC[C@]43C)C2C1,HPLC,,4 µM
CC(C)(C)NC(=O)[C@H]1N(C(=O)[C@@H](O)[C@H](Cc2ccccc2)NC(=O)[C@H](CC(N)=O)NC(=O)COc2ccccc2Cl)CSC1(C)C,,,<0.05 µM
Cc1ccc(S(=O)(=O)NC(N)=NCCC[C@H](NC(=O)OCc2ccccc2)C(=O)O)cc1,HPLC,,>>500 µM